Source: article PMC5719368, “Allosteric pyruvate kinase-based “logic gate” synergistically senses energy and sugar levels in Mycobacterium tuberculosis” (Nature Communications, 2017)

How the values were obtained:
C=C(OP(=O)(O)O)C(=O)O = test: purified protein; settings: pH 7.2; 25.0 °C
[1] = system: Nc1ncnc2c1ncn2[C@@H]1O[C@H](COP(=O)(O)OP(=O)(O)O)[C@@H](O)[C@H]1O; test: purified protein; settings: pH 7.2; 25.0 °C

## MtbPYK (Mycobacterium tuberculosis H37Rv)
C=C(OP(=O)(O)O)C(=O)O
  K0.5: 0.41 ± 0.01 mM
  kcat/Km: 446000 M⁻¹ s⁻¹
[1]
  Km: 470 ± 20 µM
